Reference: patent US20240059758A1, “Therapeutic antibodies with neutralizing activity against sars-cov-2 glycoprotein s” (CORAT THERAPEUTICS, published 2024)

B1: hybrid antibody: VL YU537-H11 (SEQ ID No. 402) with VH YU536-D04 (SEQ ID No. 364) (antibody, V domains shown)
VH: QVQLVQSGGGLVQPGGSLRLSCAASGLTVSSNYMSWVRQAPGKGLEWVSVIYSGGSTYYADSVKGRFIISRDNSKNTLYLQMNSLRAEDTAVYYCARDLVVMGLDVWGKGTLVTVSS
VL: QSVLTQPPSVSAAPGQKVTISCSGSSSNIGNNYVSWYQQLPGTAPKLLIYDTNKRPSGIPDRFSGSKSGTSATLGITGLQTGDEADYYCATWDSSLSVGVFGGGTKLTVL
B2: STE90-C11 (IgG) (antibody, V domains shown)
VH: QVQLVESGGGLVQPGGSLRLSCAASGLTVSSNYMSWVRQAPGKGLEWVSVIYSGGSTYYADSVKGRFTISRDDSKNTLYLQMNSLRAEDTAVYYCARDVADAFDIWGQGTMVTVSS
VL: DIVMTQSPSFLSASVGDRVTITCRASQGISSYLAWYQQKPGKAPKLLIYAASTLQSGVPSRFSGSGSGTEFTLTISSLQPEDFATYYCQQLNSYPPFTFGPGTKVDIK
B3: hybrid antibody: VL YU537-H11 (SEQ ID No. 402) with VH STE90-C11 (SEQ ID No. 1305) (antibody, V domains shown)
VH: QVQLVESGGGLVQPGGSLRLSCAASGLTVSSNYMSWVRQAPGKGLEWVSVIYSGGSTYYADSVKGRFTISRDDSKNTLYLQMNSLRAEDTAVYYCARDVADAFDIWGQGTMVTVSS
VL: QSVLTQPPSVSAAPGQKVTISCSGSSSNIGNNYVSWYQQLPGTAPKLLIYDTNKRPSGIPDRFSGSKSGTSATLGITGLQTGDEADYYCATWDSSLSVGVFGGGTKLTVL
B4: hybrid antibody: VL YU536-D04 (SEQ ID No. 362) with VH STE90-C11 (SEQ ID No. 1305) (antibody, V domains shown)
VH: QVQLVESGGGLVQPGGSLRLSCAASGLTVSSNYMSWVRQAPGKGLEWVSVIYSGGSTYYADSVKGRFTISRDDSKNTLYLQMNSLRAEDTAVYYCARDVADAFDIWGQGTMVTVSS
VL: DIQLTQSPSSLSASVGDRVTITCRASQGISSYLAWYQQKPGKAPKLLIYAASTLQSGVPSRFSGSGSGTDFTLTISSLQPEDFATYYCQQLNSYPITFGQGTKLEIK
B5: hybrid antibody: VL STE90-C11 (SEQ ID No. 1309) with VH YU536-D04 (SEQ ID No. 364) (antibody, V domains shown)
VH: QVQLVQSGGGLVQPGGSLRLSCAASGLTVSSNYMSWVRQAPGKGLEWVSVIYSGGSTYYADSVKGRFIISRDNSKNTLYLQMNSLRAEDTAVYYCARDLVVMGLDVWGKGTLVTVSS
VL: DIVMTQSPSFLSASVGDRVTITCRASQGISSYLAWYQQKPGKAPKLLIYAASTLQSGVPSRFSGSGSGTEFTLTISSLQPEDFATYYCQQLNSYPPFTFGPGTKVDIK
B6: hybrid antibody: VL STE90-C11 (SEQ ID No. 1309) with VH YU537-H11 (SEQ ID No. 404) (antibody, V domains shown)
VH: EVQLLESGGGLIQPGGSLRLSCAASGLTVSSNYMSWVRQAPGKGLEWVSVIYSGGSTYYADSVKGRFTISRDNSKNALYLQMNSLRAEDTAVYYCARGESGSPYGMDVWGQGTLVTVSS
VL: DIVMTQSPSFLSASVGDRVTITCRASQGISSYLAWYQQKPGKAPKLLIYAASTLQSGVPSRFSGSGSGTEFTLTISSLQPEDFATYYCQQLNSYPPFTFGPGTKVDIK
B7: hybrid antibody: VL YU536-D04 (SEQ ID No. 362) with VH YU537-H11 (SEQ ID No. 404) (antibody, V domains shown)
VH: EVQLLESGGGLIQPGGSLRLSCAASGLTVSSNYMSWVRQAPGKGLEWVSVIYSGGSTYYADSVKGRFTISRDNSKNALYLQMNSLRAEDTAVYYCARGESGSPYGMDVWGQGTLVTVSS
VL: DIQLTQSPSSLSASVGDRVTITCRASQGISSYLAWYQQKPGKAPKLLIYAASTLQSGVPSRFSGSGSGTDFTLTISSLQPEDFATYYCQQLNSYPITFGQGTKLEIK

The binders below were run against BSA (UniProt P02769 25-607) (assay: RBD-binding quality as compared to STE90-C11; […]).

Binder | binding result
B1 | no binding
B2 | no binding
B3 | no binding
B4 | no binding
B5 | no binding
B6 | no binding
B7 | no binding
